A mixed list of measured activities; the numbers were collected in NIAID ChemDB.

Shared fields: target-level tests; agent: HIV-1; protein: Protease; measure: IC50

Neighbouring rows are from separate reports. ICn is the concentration giving n% inhibition. An empty or dashed field is not shown. Two numbers with a dash give a range or band.

structure	strain	result
CC(C)C[C@H](NC(=O)[C@@H](NC(=O)CCCCCCCCCCCCCCC(=O)N[C@@H](CC(N)=O)C(=O)N[C@@H](CCc1ccccc1)C(=O)O)C(C)O)C(=O)N[C@@H](Cc1ccccc1)C(N)=O		4.4 µM
Cc1cc(SC2=C(O)CC(CCc3ccc(O)cc3)(C3CCCCC3)OC2=O)c(C(C)(C)C)cc1OS(=O)(=O)N(C)C		0.02 µM
C[C@H](CC(=O)C[C@@H](C)[C@H]1CC(=O)[C@@]2(C)C3=C(C(=O)C[C@]12C)[C@@]1(C)CCC(=O)C(C)(C)[C@@H]1C[C@@H]3O)C(=O)O		180 µM
CC(C)[C@H](NC(=O)c1ccc2ccccc2n1)C(=O)N[C@H](CCN1CC[C@@H](SCc2ccncc2)C[C@H]1C(=O)NC(C)(C)C)Cc1ccccc1		≤0.004 µM
C[C@H](CC(=O)C[C@@H](C)[C@H]1CC(=O)[C@@]2(C)C3=C(C(=O)C[C@]12C)[C@@]1(C)CC[C@H](O)C(C)(C)[C@@H]1C[C@@H]3O)C(=O)O		170 µM
CC(C)[C@H](NC(=O)[C@H](CCCN=C(N)N)NC(=O)N[C@@H](Cc1ccc(O)cc1)C(=O)O)C(=O)N[C@@H](C=O)Cc1ccccc1		58 µM
CC(C)N(CC(=O)N(Cc1ccccc1)CC(O)CN(Cc1ccccc1)C(=O)CN(C(=O)CN(C(=O)OCc1ccccc1)C(C)C)C(C)C)C(=O)CN(C(=O)OCc1ccccc1)C(C)C		10 µM
CCCCN(CCCC)c1ccc(C(=O)CCCN2CCC(O)(c3ccc(Cl)cc3)CC2)cc1		>200 µM
CCCCCC1(c2ccccc2)CC(O)=C(SCCc2ccccc2)C(=O)O1		0.084 µM
CC(C)[C@H](NC(=O)[C@H](CCCN=C(N)N)NC(=O)N[C@@H](Cc1ccccc1)C(=O)O)C(=O)N[C@H](C=O)Cc1ccccc1		2 µM
COc1ccc(S(=O)(=O)N(CC(C)C)CC(O)C(NC(=O)c2cccc(N)c2C)Sc2ccccc2)cc1	BRU	0.01–1 µM
CCCCCCCCCCN=C(Nc1nc2ccc(OC)cc2s1)N[C@@H]1OC[C@@H](OC(C)=O)[C@H](OC(C)=O)[C@H]1OC(C)=O		73.93 µg/mL
CC(C)(C)NC(=O)[C@@H]1CN(Cc2cc3ccsc3s2)CCN1C[C@@H](O)C[C@@H](Cc1ccncc1)C(=O)N[C@H]1c2ccccc2C[C@H]1O		0.00008 µM
Cc1cccc(C)c1OCC(=O)N[C@H](CCN1CC[C@@H](OCc2cccnc2)C[C@H]1C(=O)NC(C)(C)C)Cc1ccccc1		≤0.007 µM
CC1(C)O[C@H]2CC(=O)OC[C@]23[C@H]2CC[C@@]4(C)[C@H](c5ccoc5)OC(=O)[C@H]5O[C@]54[C@]2(C)C(=O)C[C@@H]13		20 µM
CC[C@H](C)/C=C(C)/C=C/C1=CC2=C(Cl)C(=O)[C@](C)(OC(C)=O)C(=O)C2=CO1		62.7 µg/mL
CCCCN(CCCC)c1cccc(C2(O)CCN(CCCC(=O)c3ccc(NC4CCCCC4)cc3)CC2)c1		530 µM
Cc1ccccc1CNC(=O)[C@@H]1CSCN1C(=O)[C@@H](O)[C@H](Cc1ccccc1)NC(=O)CC(C)(C)C(=O)OC[C@@H]1O[C@H](n2cc(C)c(=O)[nH]c2=O)C[C@H]1N=[N+]=[N-]	IIIB	>5 µM
CC(C)C[C@H](NC(=O)[C@@H](NC(=O)CCCCCCCCCCCCCCC(=O)N[C@@H](Cc1ccc(O)cc1)C(=O)N[C@@H](Cc1ccccc1)C(=O)O)C(C)O)C(=O)N[C@@H](Cc1ccccc1)C(N)=O		3.5 µM
O=C(CCCN1CCC(O)(c2cccc(NC3CCCCC3)c2)CC1)c1ccc(F)cc1		115 µM
CC(C)(C)NC(=O)[C@@H]1CSCN1C(=O)[C@@H](O)[C@H](Cc1ccccc1)NC(=O)CCC(=O)O	IIIB	<5 µM
CC(C)C[C@H](NC(=O)[C@@H](NC(=O)CCCCCCCCCCCCCCC(=O)N[C@@H](CC(N)=O)C(=O)N[C@@H](Cc1ccccc1)C(=O)O)C(C)O)C(=O)N[C@@H](Cc1ccc2ccccc2c1)C(N)=O		3.4 µM
O=C(CCCN1CCC(O)(c2ccc(Cl)cc2)CC1)c1ccc(NC2CCCCC2)cc1		95 µM
CCOC(=O)COc1ccc(-c2cc(O)c(SCCc3ccccc3)c(=O)o2)cc1		0.57 µM
CC(C)C[C@H](NC(=O)[C@@H](NC(=O)CCCCCCCCCCCCCCC(=O)N[C@@H](CC(N)=O)C(=O)N[C@@H](Cc1ccc(Br)cc1)C(=O)O)C(C)O)C(=O)N[C@@H](Cc1ccccc1)C(N)=O		1.2 µM
Cc1cccc(C)c1OCC(=O)N[C@@H](Cc1ccccc1)[C@H](O)CN1CC[C@@H](Sc2ccncc2)C[C@H]1C(=O)NC(C)(C)C		≤0.0033 µM
Cc1cn([C@H]2C[C@H](N=[N+]=[N-])[C@@H](COC(=O)CCC(=O)N[C@@H](Cc3ccccc3)[C@H](O)C(=O)N3CSC[C@H]3C(=O)NC(C)(C)C)O2)c(=O)[nH]c1=O	IIIB	>5 µM
C[C@H](CCC=C(CO)CO)[C@H]1C[C@H](O)[C@@]2(C)C3=CC[C@H]4C(C)(C)C(=O)CC[C@]4(C)C3=CC[C@]12C		170 µM
CC(C)NCC(=O)N(CC(=O)N(Cc1ccccc1)CC(O)CN(Cc1ccccc1)C(=O)CN(C(=O)CNC(C)C)C(C)C)C(C)C		10 µM
CC(C)(C)C[C@H](NC(=O)OCc1ccccc1)C(=O)N[C@@H](Cc1ccccc1)[C@@H](CO)[C@H](O)[C@H](Cc1ccccc1)NC(=O)[C@@H](NC(=O)OCc1ccccc1)C(C)(C)C		0.014 µM
CC(C)C[C@H](NC(=O)[C@@H](NC(=O)CCCCCCCCCCCCCCC(=O)N[C@@H](CCS(C)=O)C(=O)N[C@@H](Cc1ccccc1)C(=O)O)C(C)O)C(=O)N[C@@H](Cc1ccccc1)C(N)=O		12.6 µM
CCCN=C(Nc1nc2c(C)cccc2s1)N[C@@H]1OC[C@@H](OC(C)=O)[C@H](OC(C)=O)[C@H]1OC(C)=O		28.37 µg/mL
C[C@H](CC[C@H](O)C(C)(O)CO)[C@H]1CC[C@@]2(C)C3=CC[C@H]4C(C)(C)C(=O)CC[C@]4(C)C3=CC[C@]12C		>1000 µM
COc1ccc2nc(NC(=NCc3ccccc3)N[C@@H]3OC[C@@H](OC(C)=O)[C@H](OC(C)=O)[C@H]3OC(C)=O)sc2c1		139.2 µg/mL
O=C(N[C@@H](Cc1ccccc1)[C@@H](O)C[C@@H](Cc1ccccc1)C(=O)N[C@H]1c2ccccc2C[C@H]1O)O[C@H]1CCOC1		0.00006 µM
CC(=O)O[C@@H]1C(=O)C2=C(C(=O)C[C@H]3C(C)(C)[C@@H](O)CC[C@]23C)[C@]2(C)C(=O)C[C@H]([C@@H](C)CC(=O)C[C@@H](C)C(=O)O)[C@@]12C		200 µM
CC(C(=O)O)C(C)C(=O)N[C@@H](Cc1ccccc1)[C@H](O)C(=O)N1CSC[C@H]1C(=O)NC(C)(C)C	IIIB	<5 µM
CCCC[C@H](NC(=O)[C@@H](NC(=O)CCCCCCCCCCCCCCC(=O)N[C@@H](CC(N)=O)C(=O)N[C@@H](Cc1ccccc1)C(=O)O)C(C)O)C(=O)N[C@@H](Cc1ccccc1)C(N)=O		10.5 µM
Cc1cn([C@@H]2C[C@@H](N=[N+]=[N-])[C@H](COC(=O)C(C)(C)CC(=O)N[C@@H](Cc3ccccc3)[C@H](O)C(=O)N3CSC(C)(C)[C@H]3C(=O)NC(C)(C)C)O2)c(=O)[nH]c1=O	IIIB	>5 µM
CCN(CCN(C)C)c1ccc(C(=O)CCCN2CCC(O)(c3ccc(Cl)cc3)CC2)cc1		355 µM
Cc1ccccc1CNC(=O)[C@H]1N(C(=O)[C@@H](O)[C@H](Cc2ccccc2)NC(=O)CC(C)(C)C(=O)OC[C@@H]2O[C@H](n3cc(C)c(=O)[nH]c3=O)C[C@H]2N=[N+]=[N-])CSC1(C)C	IIIB	<5 µM
Cc1cc(SC2=C(O)C[C@@](CCc3ccc(N)cc3)(C(C)C)OC2=O)c(C(C)(C)C)cc1CO	IIIB	0.00009 µM

Repeating the final 6 entries:

structure,strain,result
CC(C(=O)O)C(C)C(=O)N[C@@H](Cc1ccccc1)[C@H](O)C(=O)N1CSC[C@H]1C(=O)NC(C)(C)C,IIIB,<5 µM
CCCC[C@H](NC(=O)[C@@H](NC(=O)CCCCCCCCCCCCCCC(=O)N[C@@H](CC(N)=O)C(=O)N[C@@H](Cc1ccccc1)C(=O)O)C(C)O)C(=O)N[C@@H](Cc1ccccc1)C(N)=O,,10.5 µM
Cc1cn([C@@H]2C[C@@H](N=[N+]=[N-])[C@H](COC(=O)C(C)(C)CC(=O)N[C@@H](Cc3ccccc3)[C@H](O)C(=O)N3CSC(C)(C)[C@H]3C(=O)NC(C)(C)C)O2)c(=O)[nH]c1=O,IIIB,>5 µM
CCN(CCN(C)C)c1ccc(C(=O)CCCN2CCC(O)(c3ccc(Cl)cc3)CC2)cc1,,355 µM
Cc1ccccc1CNC(=O)[C@H]1N(C(=O)[C@@H](O)[C@H](Cc2ccccc2)NC(=O)CC(C)(C)C(=O)OC[C@@H]2O[C@H](n3cc(C)c(=O)[nH]c3=O)C[C@H]2N=[N+]=[N-])CSC1(C)C,IIIB,<5 µM
Cc1cc(SC2=C(O)C[C@@](CCc3ccc(N)cc3)(C(C)C)OC2=O)c(C(C)(C)C)cc1CO,IIIB,0.00009 µM